Results reported in BindingDB's records for 26878082 (University of Bonn, 2016).

The compounds below were run against Replicase polyprotein 1ab (Severe acute respiratory syndrome coronavirus, UniProt P0C6X7) (assay: ASSAY_NAME: No assay is provided DESCRIPTION: This is a review article.).

Row | Structure (SMILES) | IC50
1 | O=CC(Cc1c[nH]cn1)NC[C@H]1C[C@@H]2CCCC[C@@H]2CN1C(=O)c1ccc(-c2ccccc2)cc1 (stereo partly drawn) | 240 µM
2 | O=CC(Cc1c[nH]cn1)NC[C@@H]1C[C@H]2CCCC[C@H]2CN1C(=O)c1ccc(-c2ccccc2)cc1 (stereo partly drawn) | 108 µM
3 | O=CC(Cc1c[nH]cn1)NCC1CC2CCCCC2CN1C(=O)c1ccccc1 (stereo not drawn) | 68 µM
